Reference: patent US20240122894A1, “METHODS TO SYNTHESIZE FLAVONOID DIMERS AND OLIGOMERS AND THE USE THEREOF” (National University of Singapore, priority 2020, published 2024)
Where “and” joins values, the source holds several entries; their conditions need not be identical. Equal entries are not always repeated.

Test: EPR spectra of flavonoid radicals (hyperfine coupling constants, linewidth, center field)
Conditions: for G value: flavonoid radical, simulated EPR spectrum

O=c1cc(-c2ccc(O)c(O)c2)oc2ccccc12 [3′,4′-dihydroxyflavone]
center field (CF) (pH 10): 328.348 mT
linewidth (LW) (pH 10): 0.02 mT
G value (pH 10): 2.0002

O=c1cc(-c2ccc(O)c(O)c2)oc2cc(O)ccc12 [7,3′,4′-trihydroxyflavone]
center field (CF) (pH 11): 328.348 mT
linewidth (LW) (pH 11): 0.02 mT
G value (pH 11): 2.0002

O=c1cc(-c2ccc(O)c(O)c2-c2c(O)cc3oc(-c4ccc(O)c(O)c4)cc(=O)c3c2O)oc2cc(O)cc(O)c12 [Compound 2a, 6-(6-(5,7-dihydroxy-4-oxo-4H-chromen-2-yl)-2,3-dihydroxyphenyl)-2-(3,4-dihydroxyphenyl)-5,7-dihydroxy-4H-chromen-4-one]
center field (CF) (pH 11.5): 328.348 mT
linewidth (LW) (pH 11.5): 0.02 mT
G value (pH 11.5, listed as Dicranolomin): 2.0002 and 2
